The results in this text go back to PubChem BioAssay AID602140 (NMMLSC, 2011).

The list shows a part of the results, in another mix than the full data. Active and inactive are the calls of the source. No rule for the calls is given here.

The subject of the assay is Botulinum neurotoxin type F light chain protease (Clostridium botulinum). Briefly: inhibition of botulinum toxin F LC protease – biochemical, flow cytometry, cherry pick 1, confirmation (AID 602140). The note with it: multiplex microsphere protease cleavage assay, at 10 µM, active compounds read high. For orientation: Flow cytometry measures light scatter and fluorescence of single cells or particles in a stream.

Regarding `CN1CCC(Nc2ccc(F)c(Cl)c2)CC1`, the inhibition is inactive: -3.9%.

The inhibition is the drop in the measured response relative to a control, in per cent.
